Test results taken from article PMC6337631, “Effective Tetradentate Compound Complexes against Leishmania spp. that Act on Critical Enzymatic Pathways of These Parasites” (Molecules, 2018).

What was measured:
Type in all cases: cell-based
[1] = system: Leishmania donovani amastigote forms; experiment: Amastigote test (intracellular forms in J774.2 macrophages), L. donovani; details: for SI Leishmania donovani Amastigote Forms: IC50 macrophage / IC50 parasite form; for number of times that compound exceeds the reference drug SI, L. donovani Amastigote Forms: in brackets, vs Glucantime
Procedure: (§1) Promastigote forms of three different Leishmania spp., L. donovani (MHOM/PE/84/LC26), L. infantum (MCAN/ES/2001/UCM-10) and L. braziliensis (MHOM/BR/1975/M2904), were cultured in vitro in Medium Trypanosomes Liquid (MTL) supplemented with 10% inactivated foetal calf serum (FCS) in an air atmosphere at 28 °C, in Roux flasks (Corning, Manassas, VA, USA) with a surface area of 75 cm^2, according to [33].
(§2) The compounds and the reference drug Glu were dissolved in DMSO (Panreac, Barcelona, Spain) and tested from 100 µM to 1 µM with 0.1% (v/v) DMSO final concentration in plates. Therefore, controls were prepared including 0.1% (v/v) of this component, as previously described.
(§3) J774.2 macrophages were grown and seeded at a density of 1 × 10^4 cells/well in 24-well microplates (Nunc) with rounded coverslips on the bottom and cultured for 48 h in humidified 95% air, 5% CO2 atmosphere at 37 °C in Minimal Essential Medium (MEM) with 2 mM glutamine and 20% (v/v) inactivated FCS. Adherent macrophages were infected with metacyclic promastigotes in the stationary growth phase of L. donovani, L. infantum and L. braziliensis at a multiplicity of infection (MOI) ratio of 1:10 and maintained for 24 h. Non-phagocytosed parasites were removed by washing, and after addition of the testing compounds at concentrations from 100 µM to 1 µM, cultured in 500 μL/well volumes. Control cultures were also included. After 72 h incubation, leishmanicidal activity was assessed based on the number of amastigotes in treated and untreated cultures in methanol-fixed and Giemsa-stained preparations by analyzing 500 host cells distributed in randomly chosen microscopic fields. The leishmanicidal effect was calculated as described to determine the leishmanicidal activity in the promastigote forms. Each drug concentration was tested in triplicate in four separate determinations.

[2] = system: Leishmania donovani promastigote forms; experiment: Promastigote test (extracellular forms), L. donovani; details: for SI Leishmania donovani Promastigote Forms: IC50 macrophage / IC50 parasite form; for number of times that compound exceeds the reference drug SI, L. donovani Promastigote Forms: in brackets, vs Glucantime
Procedure: as §1, §2
(§4) Promastigote forms were collected in the exponential growth phase and seeded at 1 × 10^5 parasites/mL in 24-well microplates (Nunc, Naperville, IL, USA), after adding each compound at concentrations from 100 µM to 1 µM and cultured in 500 μL/well volumes at 28 °C. After 72 h incubation, the leishmanicidal activity was assessed using a Neubauer haemocytometric chamber in comparison with the control cultures. […] Each drug concentration was tested in triplicate in four separate determinations.

[3] = system: Leishmania infantum promastigote forms; experiment: Promastigote test (extracellular forms), L. infantum; details: for SI Leishmania infantum Promastigote Forms: IC50 macrophage / IC50 parasite form; for number of times that compound exceeds the reference drug SI, L. infantum Promastigote Forms: in brackets, vs Glucantime
Procedure: as §1, §2, §4

[4] = system: Leishmania braziliensis amastigote forms; experiment: Amastigote test (intracellular forms in J774.2 macrophages), L. braziliensis; details: for SI Leishmania braziliensis Amastigote Forms: IC50 macrophage / IC50 parasite form; for number of times that compound exceeds the reference drug SI, L. braziliensis Amastigote Forms: in brackets, vs Glucantime
Procedure: as §1, §2, §3

[5] = system: Leishmania infantum amastigote forms; experiment: Amastigote test (intracellular forms in J774.2 macrophages), L. infantum; details: for SI Leishmania infantum Amastigote Forms: IC50 macrophage / IC50 parasite form; for number of times that compound exceeds the reference drug SI, L. infantum Amastigote Forms: in brackets, vs Glucantime
Procedure: as §1, §2, §3

[6] = system: Leishmania braziliensis promastigote forms; experiment: Promastigote test (extracellular forms), L. braziliensis; details: for SI Leishmania braziliensis Promastigote Forms: IC50 macrophage / IC50 parasite form; for number of times that compound exceeds the reference drug SI, L. braziliensis Promastigote Forms: in brackets, vs Glucantime
Procedure: as §1, §2, §4

CN1CCN(C)CCN(Cc2ccccn2)CC1.O=S(=O)([O-])C(F)(F)F.O=S(=O)([O-])C(F)(F)F.[Fe+2] [Compound 1]
SI Leishmania donovani Amastigote Forms [1]: 3.0
number of times that compound exceeds the reference drug SI, L. donovani Amastigote Forms [1]: 6
SI Leishmania donovani Promastigote Forms [2]: 1.3
number of times that compound exceeds the reference drug SI, L. donovani Promastigote Forms [2]: 2
SI Leishmania infantum Promastigote Forms [3]: 2.1
number of times that compound exceeds the reference drug SI, L. infantum Promastigote Forms [3]: 3
SI Leishmania braziliensis Amastigote Forms [4]: 1.8
number of times that compound exceeds the reference drug SI, L. braziliensis Amastigote Forms [4]: 4
SI Leishmania infantum Amastigote Forms [5]: 1.8
number of times that compound exceeds the reference drug SI, L. infantum Amastigote Forms [5]: 3
SI Leishmania braziliensis Promastigote Forms [6]: 1.7
number of times that compound exceeds the reference drug SI, L. braziliensis Promastigote Forms [6]: 3

CN1CCN(C)CCN(Cc2ccccn2)CC1.O=S(=O)([O-])C(F)(F)F.O=S(=O)([O-])C(F)(F)F.[Mn+2] [Compound 3]
SI Leishmania donovani Amastigote Forms [1]: 8.4
number of times that compound exceeds the reference drug SI, L. donovani Amastigote Forms [1]: 17
SI Leishmania donovani Promastigote Forms [2]: 3.4
number of times that compound exceeds the reference drug SI, L. donovani Promastigote Forms [2]: 6
SI Leishmania infantum Promastigote Forms [3]: 11.6
number of times that compound exceeds the reference drug SI, L. infantum Promastigote Forms [3]: 14
SI Leishmania braziliensis Amastigote Forms [4]: 11.3
number of times that compound exceeds the reference drug SI, L. braziliensis Amastigote Forms [4]: 23
SI Leishmania infantum Amastigote Forms [5]: 26.6
number of times that compound exceeds the reference drug SI, L. infantum Amastigote Forms [5]: 44
SI Leishmania braziliensis Promastigote Forms [6]: 10.6
number of times that compound exceeds the reference drug SI, L. braziliensis Promastigote Forms [6]: 18

CN(C)c1ccnc(CN2CCC[C@H]2[C@@H]2CCCN2Cc2cc(N(C)C)ccn2)c1 [Compound 7]
SI Leishmania donovani Amastigote Forms [1]: 156.5
number of times that compound exceeds the reference drug SI, L. donovani Amastigote Forms [1]: 313
SI Leishmania donovani Promastigote Forms [2]: 21.2
number of times that compound exceeds the reference drug SI, L. donovani Promastigote Forms [2]: 35
SI Leishmania infantum Promastigote Forms [3]: 14.0
number of times that compound exceeds the reference drug SI, L. infantum Promastigote Forms [3]: 17
SI Leishmania braziliensis Amastigote Forms [4]: 20.2
number of times that compound exceeds the reference drug SI, L. braziliensis Amastigote Forms [4]: 40
SI Leishmania infantum Amastigote Forms [5]: 19.1
number of times that compound exceeds the reference drug SI, L. infantum Amastigote Forms [5]: 32
SI Leishmania braziliensis Promastigote Forms [6]: 14.7
number of times that compound exceeds the reference drug SI, L. braziliensis Promastigote Forms [6]: 25

CN(Cc1ccccn1)C1CCCCC1N(C)Cc1ccccn1 (stereo not shown) [Compound 8]
SI Leishmania donovani Amastigote Forms [1]: 141.2
number of times that compound exceeds the reference drug SI, L. donovani Amastigote Forms [1]: 282
SI Leishmania donovani Promastigote Forms [2]: 8.5
number of times that compound exceeds the reference drug SI, L. donovani Promastigote Forms [2]: 14
SI Leishmania infantum Promastigote Forms [3]: 3.2
number of times that compound exceeds the reference drug SI, L. infantum Promastigote Forms [3]: 4
SI Leishmania braziliensis Amastigote Forms [4]: 12.4
number of times that compound exceeds the reference drug SI, L. braziliensis Amastigote Forms [4]: 25
SI Leishmania infantum Amastigote Forms [5]: 11.9
number of times that compound exceeds the reference drug SI, L. infantum Amastigote Forms [5]: 20
SI Leishmania braziliensis Promastigote Forms [6]: 3.6
number of times that compound exceeds the reference drug SI, L. braziliensis Promastigote Forms [6]: 6

CN1CCN(C)CCN(Cc2ccccn2)CC1 [Compound 9]
SI Leishmania donovani Amastigote Forms [1]: 6.9
number of times that compound exceeds the reference drug SI, L. donovani Amastigote Forms [1]: 14
SI Leishmania donovani Promastigote Forms [2]: 3.4
number of times that compound exceeds the reference drug SI, L. donovani Promastigote Forms [2]: 6
SI Leishmania infantum Promastigote Forms [3]: 1.4
number of times that compound exceeds the reference drug SI, L. infantum Promastigote Forms [3]: 2
SI Leishmania braziliensis Amastigote Forms [4]: 3.3
number of times that compound exceeds the reference drug SI, L. braziliensis Amastigote Forms [4]: 7
SI Leishmania infantum Amastigote Forms [5]: 3.0
number of times that compound exceeds the reference drug SI, L. infantum Amastigote Forms [5]: 5
SI Leishmania braziliensis Promastigote Forms [6]: 1.9
number of times that compound exceeds the reference drug SI, L. braziliensis Promastigote Forms [6]: 3

c1ccc(CN2CCN(Cc3ccccn3)CCN(Cc3ccccn3)CC2)nc1 [Compound 10]
SI Leishmania donovani Amastigote Forms [1]: 10.9
number of times that compound exceeds the reference drug SI, L. donovani Amastigote Forms [1]: 22
SI Leishmania donovani Promastigote Forms [2]: 6.8
number of times that compound exceeds the reference drug SI, L. donovani Promastigote Forms [2]: 11
SI Leishmania infantum Promastigote Forms [3]: 48.5
number of times that compound exceeds the reference drug SI, L. infantum Promastigote Forms [3]: 61
SI Leishmania braziliensis Amastigote Forms [4]: 10.6
number of times that compound exceeds the reference drug SI, L. braziliensis Amastigote Forms [4]: 21
SI Leishmania infantum Amastigote Forms [5]: 12.1
number of times that compound exceeds the reference drug SI, L. infantum Amastigote Forms [5]: 20
SI Leishmania braziliensis Promastigote Forms [6]: 22.9
number of times that compound exceeds the reference drug SI, L. braziliensis Promastigote Forms [6]: 38

CN1CCN(C)CCN(CCN2CCN(C)CCN(C)CC2)CC1 [Compound 11, TACN2]
SI Leishmania donovani Amastigote Forms [1]: 3.8
number of times that compound exceeds the reference drug SI, L. donovani Amastigote Forms [1]: 8
SI Leishmania donovani Promastigote Forms [2]: 2.5
number of times that compound exceeds the reference drug SI, L. donovani Promastigote Forms [2]: 4
SI Leishmania infantum Promastigote Forms [3]: 0.9
number of times that compound exceeds the reference drug SI, L. infantum Promastigote Forms [3]: 1
SI Leishmania infantum Amastigote Forms [5]: 2.2
number of times that compound exceeds the reference drug SI, L. infantum Amastigote Forms [5]: 4
SI Leishmania braziliensis Promastigote Forms [6]: 1.2
number of times that compound exceeds the reference drug SI, L. braziliensis Promastigote Forms [6]: 2

[Fe^II2(TACN2)(CH3CN)6](ClO4)4 [Compound 2]
SI Leishmania donovani Amastigote Forms [1]: 6.5
number of times that compound exceeds the reference drug SI, L. donovani Amastigote Forms [1]: 13
SI Leishmania donovani Promastigote Forms [2]: 5.4
number of times that compound exceeds the reference drug SI, L. donovani Promastigote Forms [2]: 9
SI Leishmania infantum Promastigote Forms [3]: 2.0
number of times that compound exceeds the reference drug SI, L. infantum Promastigote Forms [3]: 2
SI Leishmania braziliensis Amastigote Forms [4]: 8.4
number of times that compound exceeds the reference drug SI, L. braziliensis Amastigote Forms [4]: 17
SI Leishmania infantum Amastigote Forms [5]: 1.8
number of times that compound exceeds the reference drug SI, L. infantum Amastigote Forms [5]: 3
SI Leishmania braziliensis Promastigote Forms [6]: 2.8
number of times that compound exceeds the reference drug SI, L. braziliensis Promastigote Forms [6]: 5

meglumine antimoniate [Glucantime, reference compound]
SI Leishmania donovani Amastigote Forms [1]: 0.5
SI Leishmania donovani Promastigote Forms [2]: 0.6
SI Leishmania infantum Promastigote Forms [3]: 0.8
SI Leishmania braziliensis Amastigote Forms [4]: 0.5
SI Leishmania infantum Amastigote Forms [5]: 0.6
SI Leishmania braziliensis Promastigote Forms [6]: 0.6
